Measurements taken from PMC9575645 (Signal Transduction and Targeted Therapy, 2022).

Assays:
[1] = Lung and blood distribution in hamsters (LC-MS); assay type: in vivo, Syrian hamsters; details: 80 mg kg^-1 d^-1 IP Bid for one day, samples 6 h after last treatment
SARS-CoV-2 KCDC03 strain = test system: SARS-CoV-2 KCDC03 strain; set-up: species or system Syrian hamsters; details: hamster, in vivo
[2] = In vivo toxicity in mice (body weight, gross and histopathological organ changes); details: 10 mg kg^-1 d^-1 atglistatin and 2 mg kg^-1 d^-1 oseltamivir, singly or in combination
[3] = Lung and blood distribution in mice (LC-MS); assay type: in vivo, C57BL/6J mice; details: 10 mg kg^-1 d^-1 IP Bid for one day, samples 6 h after last treatment

CN(C)C(=O)Nc1cccc(-c2ccc(N(C)C)cc2)c1 [Atglistatin]
lung and blood distribution [1]: accumulated in the lungs | SARS-CoV-2 genome copy number and infectious progeny production in lungs (SARS-CoV-2 KCDC03 strain): Reduction in SARS-CoV-2 genome copy number and infectious progeny production | histological lung lesions (SARS-CoV-2 KCDC03 strain): Amelioration of histological lung lesions | toxicity, including body weight loss [2]: no toxicity | lung and blood distribution [3]: accumulated in the lungs

COc1nn(-c2ccc(NC(=O)OCc3ccccc3)c(C)c2)c(=O)o1 [CAY10499]
lung and blood distribution [3]: accumulated in the lungs

CCOC(=O)C1=C[C@@H](OC(CC)CC)[C@H](NC(C)=O)[C@@H](N)C1 [oseltamivir]
toxicity, including body weight loss [2]: no toxicity
